Results taken from PubChem BioAssay (NCATS).
Only a part is listed here, and it is no random draw. Records with an inconclusive call do not appear. The source made the active and inactive calls. Calls come from the whole dose curve; as a rule, active = well fitted curve in the direction sought with a large enough effect; inconclusive = small, poorly fitted or top-dose-only effect, or another doubt; inactive = no such curve, though single readings can be large; an effect the other way counts as inactive or inconclusive.

Chains of the proteins cited; added tags and fusions are not shown.
UniProt A8B2U2, whole entry: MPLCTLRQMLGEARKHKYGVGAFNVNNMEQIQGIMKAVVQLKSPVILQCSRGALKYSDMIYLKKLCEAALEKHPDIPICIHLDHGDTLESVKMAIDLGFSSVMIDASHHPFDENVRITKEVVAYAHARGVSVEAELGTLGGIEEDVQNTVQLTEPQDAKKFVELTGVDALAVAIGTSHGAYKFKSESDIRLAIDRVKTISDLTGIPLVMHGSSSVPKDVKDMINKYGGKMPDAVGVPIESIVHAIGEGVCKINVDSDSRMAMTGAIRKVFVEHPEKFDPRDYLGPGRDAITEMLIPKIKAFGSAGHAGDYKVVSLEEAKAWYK
UniProt P00883, whole entry: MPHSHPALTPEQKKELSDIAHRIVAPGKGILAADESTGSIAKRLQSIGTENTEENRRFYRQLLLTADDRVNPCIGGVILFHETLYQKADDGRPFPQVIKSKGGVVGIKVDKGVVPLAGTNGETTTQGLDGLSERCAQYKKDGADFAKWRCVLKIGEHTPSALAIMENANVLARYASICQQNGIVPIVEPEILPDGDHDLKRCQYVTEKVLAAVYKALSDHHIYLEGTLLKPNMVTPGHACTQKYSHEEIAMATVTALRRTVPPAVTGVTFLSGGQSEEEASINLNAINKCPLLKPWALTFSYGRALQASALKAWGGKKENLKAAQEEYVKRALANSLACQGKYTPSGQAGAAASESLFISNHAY

How the values were obtained:
[1] = qHTS Assay for Inhibitors of Fructose-1,6-bisphosphate Aldolase from Giardia Lamblia: Giardia lamblia growth inhibition (AID 2785); conditions: Giardia lamblia trophozoite growth inhibition; at 57.5 µM (top of the series);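 note: trophozoites exposed to compound for 48 h at 37 °C; nearly all actives have a fitted effect of over 70% in size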
Description: (§1) NIH Chemical Genomics Center [NCGC]
(§2) NIH Molecular Libraries Probe Production centers Network [MLPCN]
(§3) Assay Provider: Osnat Herzberg, University of Maryland
(§4) The objective of this project is to obtain compounds that inhibit Giardia lamblia growth. G. lamblia is a human pathogen which afflicts impoverished nations; it is the most common cause of outbreaks of diarrhea in the United States. During the course of our study of potential drug targets in Giardia, we have identified the Class II (Zn2+ functions in electrophilic catalysis) fructose-1,6-bisphosphate aldolase (FBPA) as an excellent candidate for drug targeting. FBPA is a key glycolytic pathway enzyme, essential for G. lamblia survival. […]
(§5) A glyceraldehyde-3-phosphate dehydrogenase/triose phosphate isomerase/NAD/arsenate coupled assay was adapted to the 1536-well HTP format for use in the primary screen. This was done by coupling it to a diaphorase/resazurin/resorufin reaction that can be monitored by fluorescence (excitation, 544 nm; emission, 590 nm). Compounds identified in this screen will be further evaluated by coupling the glycerol-3-phosphate/triose phosphate isomerase/NADH assay to a phenazine methosulfate/tetranitroblue tetrazolium color reaction. […]

[2] = molecular target: Fructose-bisphosphate aldolase (Giardia intestinalis (strain ATCC 50803 / WB clone C6)) (UniProt A8B2U2); assay: qHTS Assay for Inhibitors of Fructose-1,6-bisphosphate Aldolase from Giardia Lamblia: Primary screen confirmation (AID 2787); conditions: purified Giardia aldolase enzyme activity; at 57.5 µM (top of the series);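 note: aldolase product measured through coupled diaphorase step turning resazurin into fluorescent resorufin; nearly all actives have a fitted effect of over 45% in size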
Method in brief: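 Confirmation of primary hits by qHTS up to 57.5 uM final compound. Enzyme at 40 nM with 30 uM ZnCl2, 10 min RT pre-incubation, then substrate/coupling/resorufin-forming detection mix for 20 min before fluorescence read at 525/598 nm.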

[3] = molecular target: Fructose-bisphosphate aldolase A (Oryctolagus cuniculus) (UniProt P00883); assay: qHTS Assay for Inhibitors of Fructose-1,6-bisphosphate Aldolase from Giardia Lamblia: Rabbit FBPA Selectivity (AID 2794); conditions: Rabbit muscle FBPA enzyme inhibition, selectivity counter-screen; at 57.5 µM (top of the series); note: nearly all actives have a fitted effect of over 60% in size
Method in brief: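 AmpLite Red readout, ex/em 525/598 nm. Rabbit FBPA, GAP-linked coupling enzymes; 10 min cpd preincubation, then 20 min after substrate, both RT. Concentration-response up to 57.5 uM final.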

[4] = qHTS Assay for Inhibitors of Fructose-1,6-bisphosphate Aldolase from Giardia Lamblia: Coupling assay counterscreen confirmation (AID 2795); conditions: GAPDH coupling enzyme counterscreen, biochemical; at 57.5 µM (top of the series); note: nearly all actives have a fitted effect of over 55% in size
Description: as §1, §2, §3, §4, §5
6,Detector,525 nm/598 nm (Fluorescence),ViewLux Fluorescence Read (Read 1) […]

[5] = qHTS Assay for Inhibitors of Fructose-1,6-bisphosphate Aldolase from Giardia Lamblia: Mammalian cellular toxicity (AID 2786); conditions: mammalian cell viability counter-screen; at 57.5 µM (top of the series);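 note: compound exposure lasted 48 h before reading; nearly all actives have a fitted effect of over 60% in size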
Description: as §1, §2, §3, §4, §5
% is set by controls: 0 for no effect and ±100 for the full control effect.

CCCN1CCC(Nc2cc(OC)cc(OC)c2)CC1
inactive: activity change, negative = inhibition [1] -9.31% | activity change, negative = inhibition [2] -28.7% | activity, negative = inhibition [3] -14.1% | activity change, negative = inhibition [4] -21.9%

CN1CCC(Nc2ccc(Cl)cc2)CC1
inactive: activity change, negative = inhibition [1] -5.92% | viability change, negative = toxicity [5] 2.07% | activity change, negative = inhibition [2] -8.38% | activity, negative = inhibition [3] 0.145% | activity change, negative = inhibition [4] 12.5%
